This passage reports SI results from patent publication US8779141B2, “Viral inhibitors” (Gilead Sciences, Inc., priority 2002, dated 2014).

The subject of data set [1] is Coxsackie B3 virus (strain Nancy). As to the kind of experiment: Anti-coxsackie virus assay, cytopathic effect in Vero cells (MTS). It is filed as cell-based. Particulars: Table 13; SI: IC50/EC50. The method, then: (§1) Madin-Darbey Bovine Kidney (MDBK) cells were maintained in Dulbecco's modified Eagle medium (DMEM) supplemented with BVDV-free 5% fetal calf serum (DMEME-FCS) at 37° C. in a humidified, 5% CO2 atmosphere. BVDV-1 (strain PE515) was used to assess the antiviral activity in MDBK cells. Vero cells were maintained in the same way as MDBK cells. Vero cells were infected with Coxsackie B3 virus (strain Nancy).
Ninety-six-well cell culture plates were seeded with Vero cells in DMEM medium containing 10 fetal calf serum (FCS) so that cells reached confluency 24-48 hr later. Medium was then removed and serial 5-fold dilutions of the test compounds were added in a total volume of 100 ul, after which the virus inoculum (100 μl) was added to each well. […] Uninfected cells and cells receiving virus without compound were included in each asay plate. After 5 days, the medium was removed and 90 μl of DMEM-FCS and 10 μl of MTS/PMS solution (Promega) was added to each well. Following a 2 hr incubation period at 37° C., the optical density of the wells was read at 498 nm in a microplate reader. The 50% effective concentration (EC50) value was defined as the concentration of compound that protects 50% of the cell monolayer from virus-induced cytopathic effect.
For orientation: Cytopathic effects are the visible damage that an infection or toxin causes in cultured cells.

The subject of the next data set is BVDV-1 (strain PE515). As to the kind of experiment: Anti-BVDV assay, virus-induced cytopathic effect in MDBK cells (MTS). The format is cell-based, Bovine Viral Diarrhea Virus. How it is done:
as §1
Ninety-six-well cell culture plates were seeded with MDBK cells in DMEM-FCS so that cells reached 24 hr later confluency. Then medium was removed and serial 5-fold dilutions of the test compounds were added in a total volume of 100 ul, after which the virus inoculum (100 ul) was added to each well. […] Uninfected cells and cells receiving virus without compound were included in each assay plate. After 5 days, medium was removed and 90 μl of DMEM-FCS and 10 ul of MTS/PMS solution (Promega) was added to each well. Following a 2 hr incubation period at 37° C. the optical density of the wells was read at 498 nm in a microplate reader.

[2] abbreviates: Table 9, SI: IC50/EC50 (MDBK growth / anti-BVDV).

Regarding `Fc1ccc(Cn2ccc3nc(-c4c(F)cccc4F)nc-3c2)c(F)c1` [GPJN-40, 2-(2,6-Difluorophenyl)-5-[(2,4-difluorophenyl)methyl]-5H-imidazo[4,5-c]pyridine], the SI in data set [1] is listed as 11.2; in the data set on BVDV-1 (strain PE515) (setting [2]), more than 400.
For `Fc1cccc(-c2nc3ccn(Cc4ccc(Br)cc4)cc-3n2)c1` [GPJN-50, 5-[(4-Bromophenyl)methyl]-2-(3-fluorophenyl)-5H-imidazo[4,5-c]pyridine] the same measures were 11.8 and more than 4760.
In the case of `Fc1cccc(F)c1Cn1ccc2nc(-c3c(F)cccc3F)nc-2c1` [GPRTI-8, 2-(2,6-Difluorophenyl)-5-[(2,6-difluorophenyl)methyl]-5H-imidazo[4,5-c]pyridine], the SI in data set [1] is 8.48; with BVDV-1 (strain PE515) (setting [2]), more than 576.
In data set [1], `Fc1ccc(Cn2ccc3nc(-c4c(F)ccc(F)c4F)nc-3c2)c(F)c1` [GPC-12, 5-[(2,4-Difluorophenyl)methyl]-2-(2,3,6-trifluorophenyl)-5H-imidazo[4,5-c]pyridine] showed an SI of 27.7.
`Brc1ccc(Cn2ccc3nc(-c4ccncc4)nc-3c2)cc1` [GPJN-49, 5-[(4-Bromophenyl)methyl]-2-(4-pyridinyl)-5H-imidazo[4,5-c]pyridine] yielded an SI in the data set with BVDV-1 (strain PE515) (setting [2]) of 344.
`Clc1ccc(Cn2ccc3nc(-c4ccccc4)nc-3c2)s1` [GPJN-25, 5-[(5-Chloro-2-thienyl)methyl]-2-phenyl-5H-imidazo[4,5-c]pyridine] gave an SI in the data set with BVDV-1 (strain PE515) (setting [2]) of 4138.
With `Fc1cccc(F)c1-c1nc2ccn(Cc3ccc(Cl)c(Cl)c3)cc-2n1` [GPC-10, 5-[(3,4-Dichlorophenyl)methyl]-2-(2,6-difluorophenyl)-5H-imidazo[4,5-c]pyridine], the SI in data set [1] worked out at 32.59; with BVDV-1 (strain PE515) (setting [2]), 62.5.
`c1ccc(-c2nc3ccn(Cc4ccccn4)cc-3n2)cc1` [GPJN-34, 2-Phenyl-5-(2-pyridinylmethyl)-5H-imidazo[4,5-c]pyridine] yielded an SI with BVDV-1 (strain PE515) (setting [2]) of more than 116.
On the same count and under the same terms, the result for `Cc1cccc(Cn2ccc3nc(-c4ccccc4)nc-3c2)c1` [GPJN-21, 5-[(3-Methylphenyl)methyl]-2-phenyl-5H-imidazo[4,5-c]pyridine] reads 1020.
Turning to `Cc1cccc(-c2nc3ccn(Cc4ccc(Br)cc4)cc-3n2)c1` [GPJN-60, 5-[(4-Bromophenyl)methyl]-2-(3-methylphenyl)-5H-imidazo[4,5-c]pyridine], the values for the SI (in data set [1]; in the data set with BVDV-1 (strain PE515) (setting [2])) were 16.4 and 5133, respectively.
`Clc1cccc(-c2nc3ccn(Cc4ccc(Br)cc4)cc-3n2)c1` [GPJN-55, 5-[(4-Bromophenyl)methyl]-2-(3-chlorophenyl)-5H-imidazo[4,5-c]pyridine] yielded an SI in the data set on BVDV-1 (strain PE515) (setting [2]) of more than 1666.
The same measure, in the same setting: the result for `FC(F)(F)c1ccc(Cn2ccc3nc(-c4ccccc4)nc-3c2)cc1` [GPJN-24, 2-Phenyl-5-[[4-(trifluoromethyl)phenyl]methyl]-5H-imidazo[4,5-c]pyridine] reads 519; that for `Fc1ccccc1Cn1ccc2nc(-c3ccccc3)nc-2c1` [GPJN-17, 5-[(2-Fluorophenyl)methyl]-2-phenyl-5H-imidazo[4,5-c]pyridine], 517; that for `c1ccc(-c2nc3ccn(Cc4cccc5ccccc45)cc-3n2)cc1` [GPJN-36, 5-(1-Naphthalenylmethyl)-2-phenyl-5H-imidazo[4,5-c]pyridine], 1297.
Consider `Brc1cccc(-c2nc3ccn(CCOc4ccccc4)cc-3n2)c1` [GPJN-100, 2-(3-Bromophenyl)-5-(2-phenoxyethyl)-5H-imidazo[4,5-c]pyridine], for which the SI in the data set on BVDV-1 (strain PE515) (Table 10, SI: MTC/EC50) stood at 227.
As to `Brc1ccc(Cn2ccc3nc(-c4ccccc4)nc-3c2)cc1` [GPJN-22, 5-[(4-Bromophenyl)methyl]-2-phenyl-5H-imidazo[4,5-c]pyridine], the SI in the data set with BVDV-1 (strain PE515) (setting [2]) amounted to 450.
Same read-out and setting: the result for `COc1ccccc1Cn1ccc2nc(-c3ccccc3)nc-2c1` [GPJN-11, 5-[(2-Methoxyphenyl)methyl]-2-phenyl-5H-imidazo[4,5-c]pyridine] reads 1135.
For the compound `Fc1cccc(-c2nc3ccn(Cc4ccc(F)cc4F)cc-3n2)c1` [GPC-11, 5-[(2,4-Difluorophenyl)methyl]-2-(3-fluorophenyl)-5H-imidazo[4,5-c]pyridine], the values for the SI (in data set [1]; in the data set on BVDV-1 (strain PE515) (setting [2])) were 21.0 and more than 178, respectively.
The compound `Cc1ccc(Cn2ccc3nc(-c4ccccc4)nc-3c2)cc1` [GPJN-15, 5-[(4-Methylphenyl)methyl]-2-phenyl-5H-imidazo[4,5-c]pyridine] returned an SI in the data set with BVDV-1 (strain PE515) (setting [2]) of 3079.
The same measure, in the same setting: for `c1ccc(OCCn2ccc3nc(-c4ccccc4)nc-3c2)cc1` [GPJN-73, 5-(2-Phenoxyethyl)-2-phenyl-5H-imidazo[4,5-c]pyridine] the value was more than 5882; for `Fc1cccc(F)c1-c1nc2ccn(Cc3ccccc3)cc-2n1` [GPJN-1, 5-Benzyl-2-(2,6-difluorophenyl)-5H-imidazo[4,5-c]pyridine], more than 345.
The same measure, in the same setting: the result for `Fc1ccc(Cn2ccc3nc(-c4ccccc4)nc-3c2)cc1` [GPJN-19, 5-[(4-Fluorophenyl)methyl]-2-phenyl-5H-imidazo[4,5-c]pyridine] reads 3012; that for `Ic1ccc(Cn2ccc3nc(-c4ccccc4)nc-3c2)cc1` [GPJN-68, 5-[(4-Iodophenyl)methyl]-2-phenyl-5H-imidazo[4,5-c]pyridine], 653.
Still for that read-out and setting: the result for `c1ccc(CCCCn2ccc3nc(-c4ccccc4)nc-3c2)cc1` [GPJN-27, 2-Phenyl-5-(4-phenylbutyl)-5H-imidazo[4,5-c]pyridine] reads more than 48; that for `CCCN(CCC)CCSc1nnc2c(n1)[nH]c1ccccc12` [VP32947, 3-[((2-dipropylamino)ethyl)thio]-5H-1,2,4-triazino[5,6-b]indole, reference compound], more than 16785.
Consider `Cc1cn(Cc2ccc(Br)cc2)cc2nc(-c3ccccc3)nc1-2` [GPJN-104, 5-[(4-Bromophenyl)methyl]-7-methyl-2-phenyl-5H-imidazo[4,5-c]pyridine], for which the SI in the data set with BVDV-1 (strain PE515) (Table 10, SI: MTC/EC50) is recorded as 74.
As for `c1ccc(Cn2ccc3nc(-c4ccccc4)nc-3c2)cc1` [GPJN-4, 5-Benzyl-2-phenyl-5H-imidazo[4,5-c]pyridine], the SI in the data set with BVDV-1 (strain PE515) (setting [2]) is on record as 1144.
Take `c1ccc(-c2ccc(Cn3ccc4nc(-c5cccc6ccccc56)nc-4c3)cc2)cc1` [GPJN-115, 5-([1,1′-Biphenyl]-4-ylmethyl)-2-(1-naphthalenyl)-5H-imidazo[4,5-c]pyridine]: the SI in the data set on BVDV-1 (strain PE515) (Table 10, SI: MTC/EC50) turned out to be 17.
As for `Fc1cccc(Cn2ccc3nc(-c4ccccc4)nc-3c2)c1` [GPJN-18, 5-[(3-Fluorophenyl)methyl]-2-phenyl-5H-imidazo[4,5-c]pyridine], in the data set on BVDV-1 (strain PE515) (setting [2]), the SI stood at 2933.
Still for that read-out and setting: the result for `Clc1ccccc1-c1nc2ccn(Cc3ccc(Br)cc3)cc-2n1` [GPJN-54, 5-[(4-Bromophenyl)methyl]-2-(2-chlorophenyl)-5H-imidazo[4,5-c]pyridine] reads 349; that for `Brc1ccc(Cn2ccc3nc(-c4cccs4)nc-3c2)cc1` [GPJN-53, 5-[(4-Bromophenyl)methyl]-2-(2-thienyl)-5H-imidazo[4,5-c]pyridine], 2028.
On the same count and under the same terms, for `Fc1ccc(Cn2ccc3nc(-c4c(F)cccc4F)nc-3c2)cc1` [GPJN-39, 2-(2,6-Difluorophenyl)-5-[(4-fluorophenyl)methyl]-5H-imidazo[4,5-c]pyridine] the value was more than 408; for `CC(C)=CCn1ccc2nc(-c3ccccc3)nc-2c1` [GPJN-28, 5-(3-Methyl-2-butenyl)-2-phenyl-5H-imidazo[4,5-c]pyridine], more than 230.
`c1ccc(-c2nc3ccn(Cc4ccc5ccccc5c4)cc-3n2)cc1` [GPJN-26, 5-(2-Naphthalenylmethyl)-2-phenyl-5H-imidazo[4,5-c]pyridine] had an SI in the data set with BVDV-1 (strain PE515) (setting [2]) of more than 2439.
`c1ccc(-c2ccc(Cn3ccc4nc(-c5ccccc5)nc-4c3)cc2)cc1` [GPJN-32, 5-([1,1′-Biphenyl]-4-ylmethyl)-2-phenyl-5H-imidazo[4,5-c]pyridine]: the SI in data set [1] is on record as 15.4; with BVDV-1 (strain PE515) (setting [2]) it was 741.
Take `Brc1ccc(Cn2ccc3nc(-c4ccc5ccccc5c4)nc-3c2)cc1` [GPJN-63, 5-[(4-Bromophenyl)methyl]-2-(2-naphthalenyl)-5H-imidazo[4,5-c]pyridine]: the SI in the data set on BVDV-1 (strain PE515) (setting [2]) amounted to 1023.
Still for that read-out and setting: the result for `Clc1ccccc1Cn1ccc2nc(-c3ccccc3)nc-2c1` [GPJN-7, 5-[(2-Chlorophenyl)methyl]-2-phenyl-5H-imidazo[4,5-c]pyridine] reads 525.
As for `COc1cccc(-c2nc3ccn(Cc4ccc(Br)cc4)cc-3n2)c1` [GPJN-64, 5-[(4-Bromophenyl)methyl]-2-(3-methoxyphenyl)-5H-imidazo[4,5-c]pyridine], the SI in data set [1] is on record as 3.5; with BVDV-1 (strain PE515) (setting [2]) it was more than 3846.
Take `CC(C)CCn1ccc2nc(-c3ccccc3)nc-2c1` [GPJN-38, 5-(3-Methylbutyl)-2-phenyl-5H-imidazo[4,5-c]pyridine]: the SI with BVDV-1 (strain PE515) (setting [2]) is given as 213.
